{
  "source": "patent US8574608B2",
  "about": "“Bactericidal silver surfactant delivery into coating and polymer compositions” (Eastern Michigan Universtity, priority 2007, dated 2013)",
  "key": {"[1]": {"test_system": "Escherichia coli ATCC 11229", "assay": "E. coli challenge by fabrics sprayed with AgAOT", "settings": "silk"}, "[2]": {"test_system": "Escherichia coli ATCC 11229", "assay": "E. coli challenge by household surfaces sprayed with AgAOT", "settings": "for CFU/mL, Avg / CFU/mL, Run #1-#2: sprayed 0.06% silver solution"}, "[3]": {"test_system": "Staphylococcus aureus ATCC 6538", "assay": "S. aureus challenge by fabrics sprayed with AgAOT", "settings": "for effect on S. aureus: 0.24% silver solution sprayed"}, "E. coli": {"test_system": "E. coli", "assay": "E. coli challenged by silver surfactants in commercial 2K epoxy paint; for surviving bacteria (growth): key: A minus sign (−) denotes no growth; a plus sign (+) denotes confluent growth; a capital P (P) denotes particle growth", "assay_type": "cell-based, Escherichia coli", "settings": "24 h contact time; for surviving bacteria (growth): commercial 2K epoxy paint coating"}, "S. aureus": {"test_system": "S. aureus", "assay": "PU composition containing AgAOT used to challenge S. aureus", "settings": "24 h contact time; for surviving bacteria (growth), S. aureus: PU slab"}, "[4]": {"settings": "sprayed 0.06% w/w AgAOT/isopropanol, 0 h contact time"}, "[5]": {"settings": "sprayed 0.24% w/w AgAOT/isopropanol, E. coli - 0 h"}, "[6]": {"settings": "sprayed 0.24% w/w AgAOT/isopropanol, E. coli - 24 h"}, "[7]": {"settings": "acetate, sprayed 0.06% w/w AgAOT/isopropanol, 0 h contact time"}, "[8]": {"settings": "acetate, sprayed 0.06% w/w AgAOT/isopropanol, 24 h contact time"}, "[9]": {"settings": "cotton, sprayed 0.06% w/w AgAOT/isopropanol, 0 h contact time"}, "[10]": {"settings": "cotton, sprayed 0.06% w/w AgAOT/isopropanol, 24 h contact time"}, "[11]": {"settings": "linen, sprayed 0.06% w/w AgAOT/isopropanol, 24 h contact time"}, "[12]": {"settings": "polyester, sprayed 0.06% w/w AgAOT/isopropanol, 0 h contact time"}, "[13]": {"settings": "polyester, sprayed 0.06% w/w AgAOT/isopropanol, 24 h contact time"}, "[14]": {"settings": "rayon, sprayed 0.06% w/w AgAOT/isopropanol, 24 h contact time"}, "[15]": {"settings": "silk, sprayed 0.06% w/w AgAOT/isopropanol, 0 h contact time"}, "[16]": {"settings": "silk, sprayed 0.24% w/w AgAOT/isopropanol, S. aureus - 24 h"}},
  "note": "Values joined by “and” are separate entries in the source; they are usually repeats but may differ in a detail not shown here. Equal values may be shown once.",
  "data": [
    {"substance": "silver bis[2-ethylhexyl]sulfosuccinate", "values": [
      {"measurement": "CFU/mL, Average", "setting": "[1]; [4]", "result": "2.55E+05", "unit": "CFU/mL"},
      {"measurement": "CFU/mL, Run #1-#2", "setting": "[1]; [4]", "result": "2.70E+05 CFU/mL and 2.40E+05 CFU/mL"},
      {"measurement": "CFU/mL, Average", "setting": "[1]; sprayed 0.06% w/w AgAOT/isopropanol, 24 h contact time", "result": "2.75E+07", "unit": "CFU/mL"},
      {"measurement": "CFU/mL, Average", "setting": "[1]; [5]", "result": "3.38E+05", "unit": "CFU/mL"},
      {"measurement": "CFU/mL, Run #1-#4", "setting": "[1]; [5]", "result": "3.20E+05 CFU/mL and 3.60E+05 CFU/mL and 3.10E+05 CFU/mL"},
      {"measurement": "CFU/mL, Average", "setting": "[1]; [6]", "result": "0.00E+00", "unit": "CFU/mL"},
      {"measurement": "CFU/mL, Run #1-#4", "setting": "[1]; [6]", "result": "0.00E+00", "unit": "CFU/mL"},
      {"measurement": "E. coli eradication", "setting": "[2]; each of the household surface samples, 24 h contact time", "result": "eradicated"},
      {"measurement": "attenuation of E. coli growth", "setting": "[2]; household surface samples, 0 h contact time (5-10 minutes)", "result": "does not significantly attenuate"},
      {"measurement": "CFU/mL, Avg", "setting": "[2]; metal plate, 0 h contact time", "result": "3.10E+05", "unit": "CFU/mL"},
      {"measurement": "CFU/mL, Run #1-#2", "setting": "[2]; metal plate, 0 h contact time", "result": "3.40E+05 CFU/mL and 2.80E+05 CFU/mL"},
      {"measurement": "CFU/mL, Avg", "setting": "[2]; metal plate, 24 h contact time", "result": "0.00E+00", "unit": "CFU/mL"},
      {"measurement": "CFU/mL, Run #1-#2", "setting": "[2]; metal plate, 24 h contact time", "result": "0.00E+00", "unit": "CFU/mL"},
      {"measurement": "CFU/mL, Avg", "setting": "[2]; vinyl tile, 0 h contact time", "result": "2.60E+05", "unit": "CFU/mL"},
      {"measurement": "CFU/mL, Run #1-#2", "setting": "[2]; vinyl tile, 0 h contact time", "result": "2.30E+05 CFU/mL and 2.90E+05 CFU/mL"},
      {"measurement": "CFU/mL, Avg", "setting": "[2]; vinyl tile, 24 h contact time", "result": "0.00E+00", "unit": "CFU/mL"},
      {"measurement": "CFU/mL, Run #1-#2", "setting": "[2]; vinyl tile, 24 h contact time", "result": "0.00E+00", "unit": "CFU/mL"},
      {"measurement": "CFU/mL, Avg", "setting": "[2]; wall-paper, 0 h contact time", "result": "1.94E+05", "unit": "CFU/mL"},
      {"measurement": "CFU/mL, Avg", "setting": "[2]; wall-paper, 24 h contact time", "result": "0.00E+00", "unit": "CFU/mL"},
      {"measurement": "CFU/mL, Run #1-#2", "setting": "[2]; wall-paper, 24 h contact time", "result": "0.00E+00", "unit": "CFU/mL"},
      {"measurement": "CFU/mL, Average", "setting": "[3]; [7]", "result": "0.00E+00", "unit": "CFU/mL"},
      {"measurement": "CFU/mL, Run #1-#4", "setting": "[3]; [7]", "result": "0.00E+00", "unit": "CFU/mL"},
      {"measurement": "CFU/mL, Average", "setting": "[3]; [8]", "result": "0.00E+00", "unit": "CFU/mL"},
      {"measurement": "CFU/mL, Run #1-#4", "setting": "[3]; [8]", "result": "0.00E+00", "unit": "CFU/mL"},
      {"measurement": "S. aureus eradication", "setting": "[3]; cotton, linen, polyester, acetate and rayon, 0.06% silver solution sprayed, 24 h contact time", "result": "complete eradication"},
      {"measurement": "S. aureus growth inhibition", "setting": "[3]; cotton, polyester and acetate, 0.06% silver solution sprayed, 0 h contact time (about 3-10 minutes)", "result": "complete"},
      {"measurement": "CFU/mL, Average", "setting": "[3]; [9]", "result": "0.00E+00", "unit": "CFU/mL"},
      {"measurement": "CFU/mL, Run #1-#4", "setting": "[3]; [9]", "result": "0.00E+00", "unit": "CFU/mL"},
      {"measurement": "CFU/mL, Average", "setting": "[3]; [10]", "result": "0.00E+00", "unit": "CFU/mL"},
      {"measurement": "CFU/mL, Run #1-#4", "setting": "[3]; [10]", "result": "0.00E+00", "unit": "CFU/mL"},
      {"measurement": "CFU/mL, Average", "setting": "[3]; linen, sprayed 0.06% w/w AgAOT/isopropanol, 0 h contact time", "result": "1.24E+04", "unit": "CFU/mL"},
      {"measurement": "CFU/mL, Average", "setting": "[3]; [11]", "result": "0.00E+00", "unit": "CFU/mL"},
      {"measurement": "CFU/mL, Run #1-#4", "setting": "[3]; [11]", "result": "0.00E+00", "unit": "CFU/mL"},
      {"measurement": "CFU/mL, Average", "setting": "[3]; [12]", "result": "0.00E+00", "unit": "CFU/mL"},
      {"measurement": "CFU/mL, Run #1-#4", "setting": "[3]; [12]", "result": "0.00E+00", "unit": "CFU/mL"},
      {"measurement": "CFU/mL, Average", "setting": "[3]; [13]", "result": "0.00E+00", "unit": "CFU/mL"},
      {"measurement": "CFU/mL, Run #1-#4", "setting": "[3]; [13]", "result": "0.00E+00", "unit": "CFU/mL"},
      {"measurement": "S. aureus growth inhibition", "setting": "[3]; rayon, 0.06% silver solution sprayed, 0 h contact time", "result": "3 orders of magnitude"},
      {"measurement": "CFU/mL, Average", "setting": "[3]; rayon, sprayed 0.06% w/w AgAOT/isopropanol, 0 h contact time", "result": "1.88E+02", "unit": "CFU/mL"},
      {"measurement": "CFU/mL, Average", "setting": "[3]; [14]", "result": "0.00E+00", "unit": "CFU/mL"},
      {"measurement": "CFU/mL, Run #1-#4", "setting": "[3]; [14]", "result": "0.00E+00", "unit": "CFU/mL"},
      {"measurement": "S. aureus growth inhibition", "setting": "[3]; silk, 0.06% silver solution sprayed, 0 h contact time", "result": "no effect"},
      {"measurement": "effect on S. aureus", "setting": "[3]; silk, 0 h contact time (5-10 minutes)", "result": "neither organism was significantly affected"},
      {"measurement": "effect on S. aureus", "setting": "[3]; silk, 24 h contact", "result": "eradicated completely"},
      {"measurement": "CFU/mL, Average", "setting": "[3]; [15]", "result": "1.45E+05", "unit": "CFU/mL"},
      {"measurement": "CFU/mL, Run #1-#2", "setting": "[3]; [15]", "result": "1.80E+05 CFU/mL and 1.10E+05 CFU/mL"},
      {"measurement": "CFU/mL, Average", "setting": "[3]; silk, sprayed 0.06% w/w AgAOT/isopropanol, 24 h contact time", "result": "9.13E+03", "unit": "CFU/mL"},
      {"measurement": "CFU/mL, Average", "setting": "[3]; silk, sprayed 0.24% w/w AgAOT/isopropanol, S. aureus - 0 h", "result": "1.35E+05", "unit": "CFU/mL"},
      {"measurement": "CFU/mL, Average", "setting": "[3]; [16]", "result": "0.00E+00", "unit": "CFU/mL"},
      {"measurement": "CFU/mL, Run #1-#4", "setting": "[3]; [16]", "result": "0.00E+00", "unit": "CFU/mL"},
      {"measurement": "surviving bacteria (growth)", "setting": "E. coli; 0.0012 weight % Ag in coating", "result": "+"},
      {"measurement": "surviving bacteria (growth)", "setting": "E. coli; 0.003 weight % Ag in coating", "result": "+"},
      {"measurement": "surviving bacteria (growth)", "setting": "E. coli; 0.006 weight % Ag in coating", "result": "+"},
      {"measurement": "surviving bacteria (growth)", "setting": "E. coli; 0.012 weight % Ag in coating", "result": "+"},
      {"measurement": "surviving bacteria (growth)", "setting": "E. coli; 0.03 weight % Ag in coating", "result": "+"},
      {"measurement": "surviving bacteria (growth)", "setting": "E. coli; 0.06 weight % Ag in coating", "result": "−"},
      {"measurement": "surviving bacteria (growth)", "setting": "E. coli; 0.12 weight % Ag in coating", "result": "−"},
      {"measurement": "silver level giving complete inhibition of growth", "setting": "E. coli; commercial 2K epoxy paint", "result": 0.06, "unit": "% w/w"},
      {"measurement": "silver level giving complete inhibition", "setting": "S. aureus; AgAOT incorporated into PU", "result": 0.30, "unit": "% w/w silver"},
      {"measurement": "surviving bacteria (growth), S. aureus", "setting": "S. aureus; 0.01 weight % Ag in PU composition", "result": "+"},
      {"measurement": "surviving bacteria (growth), S. aureus", "setting": "S. aureus; 0.03 weight % Ag in PU composition", "result": "+"},
      {"measurement": "surviving bacteria (growth), S. aureus", "setting": "S. aureus; 0.10 weight % Ag in PU composition", "result": "+"},
      {"measurement": "surviving bacteria (growth), S. aureus", "setting": "S. aureus; 0.30 weight % Ag in PU composition", "result": "−"},
      {"measurement": "surviving bacteria (growth), S. aureus", "setting": "S. aureus; 1.0 weight % Ag in PU composition", "result": "−"},
      {"measurement": "surviving bacteria (growth), S. aureus", "setting": "S. aureus; 3.0 weight % Ag in PU composition", "result": "−"}
    ]}
  ]
}
